# Human monoclonal antibodies against the spike receptor-binding domain (heavy:light variable regions). IC50 against pseudoviruses bearing the spike of naturally observed variants; lower = stronger; >10 µg/ml means not reached at the top dose. No active / inactive call. The stated detection limit is 0.0005 µg/ml; values near or below 0.001 µg/ml lie at the floor of the assay.
# B1: BD58-0503 (protein)
# chain 1: EVQLVESGGGLVQPGGSLRLSCAASGFTFSSYSMNWVRQAPGKGLEWVSYISSSSSTIYYADSVKGRFTISRDNAKNSLYLQMNSLRDDDTAVYYCARVGPRHPLYYYDTLRQPFDYWGQGTLVTVSS
# chain 2: DIQMTQSPSSLSASVGDRVTITCQASQDISIFLNWYQQKPGRAPKLLIYDASNLETGVPSRFSGSGSGTDFTFTISSLQPEDMAIYYCQQYDTLYTFGQGTKLEIK
# B2: BD58-0512 (protein)
# chain 1: QVQLQESGPGLVKPSETLSLTCTVSGDSFSNYYWSWIRQPAGKGLEWIGRIYTSGSTNYNPSLKSRVTMSIDTSKNQFSLRLRSVTAADTAVYYCARVGVATDYWGQGTLVTVSS
# chain 2: DIQMTQSPSTLSAFVGDRVTITCRASQSISTWLAWYQQKPGKVPKLLIYKASSLESGVPSRFSGTGSGTEFTLTISSLQPDDFATYYCQQYNSYSETFGQGTKVEIK
# B3: BD58-0518 (protein)
# chain 1: QLQLQESGPGLVKPSQTLSLTCTVSGGSISSGGYYWSWIRQHPGKGLEWIGYIHYSGSTYYNPSLKSRVTISVDTSKNHFSLKLSSVTAADTAVYYCAREISTMVRGEPNDAFDIWGQGTMVTVSS
# chain 2: QSALTQPASVSGSPGQSITISCTGTSSDVGTYNLVSWYQQFPGKAPKLMIYEVSERPSGISNRFSGSKSGTTASLTISGLQAEDEADYYCCSYATGRLFGGGTKLTVL
# B4: BD58-0521 (protein)
# chain 1: EVQLVQSGSVVKKPGESLKISCQGSGYNFNDDWIGWVRQTPGKGLEWVGMIYPDDSDTRYNPSFLGQVTLSVDKSISTAHLHWSSLKTSDTAKYFCARHGVVDRETHSLPDFWGPGTLVTVSS
# chain 2: EVVMTQSPATLSVSPGERATLSCRASQNVNSRLAWFQQRPGQAPRLLIYGASTRATGVPVRFTGSGSGTEFTLTIDGLQSEDYAFYFCLQYLHWRTFGPGTKVEV
# B5: BD58-0534 (protein)
# chain 1: EVQLVESGGGVVRPGGSLRLSCAASGFTFDDHGMSWVRQAPGKGLEWVSGINWNGDSTAYADSVKGRFTISRDNTKNSLYLQMNSLRAEDTALYHCARGYYYDSTGYPHPGYYGMDVWGQGTTVTVSS
# chain 2: SYELTQPPSVSVSPGQTARITCSGDALPNQYSYWYQQKPGQAPVVLIYKDSERPSGIPERFSGSSSGTTVTLTISGVQAEDEADYYCQSADSSGTIGVFGGGTKLTVL
# B6: BD56-285 (protein)
# chain 1: QVQLVQSGAEVKKPGASVKVSCKASGYTFTSYGISWVRQAPGQGLEWMGWISASNGNTKYAQKLQGRVTMTTDTPTSTAYMELRSLRSDDTAVYYCAREIWGIVVVPAAMTGLNWFDPWGQGTLVTVSS
# chain 2: QSVLTQPPSVSGAPGQRVTISCTGSSSNIGASYDVHWYQQLPGTAPKLLIYGNSNRPSGVPDRFSGSKSGTSASLAITGLQAEDEADYYCQSYDNSLSGPVVFGGGTKLTVL
# B7: BD58-0551 (protein)
# chain 1: EVQLVESGGGLVRPGGSLRLSCAASGFTFSSYSMNWVRQAPGKGLEWVSSITSTSSYIFHADSVKGRFTLSRDNAKNSMYLQMNNLRAEDTAVYYCARGPYYDFWSSYRNIDYWGQGILVTVSS
# chain 2: DIQMTQSPSTVSASVGDRVTITCRASQGISNWLAWYQQKPGKAPKLLIYAASRLQSGVPSRFSGSGSGADFTLTISSLQPEDFAIYYCQQTNSFPLTFGGGTRVEIK
# B8: BD58-0555 (protein)
# chain 1: EVQLVKSGGGLIQPGGSLRLSCAASGLIVSRNYMSWVRQAPGKGLEWVSVIYSGGSTYYADSVEGRFTVSRDNSKNRLYLEMNSLRAEDTAVYYCARDRPAGLMDVWGQGTTVTVSS
# chain 2: DIQMTQSPSSLSSSVGDRVTITCQASQDIINNLNWYQQKPGKAPKLLIYDASNLETGVPSRFSGSGSGTDFTFTISSLQPEDIATYYCQQYDNLPFTFGPGTKLDIK
# B9: BD58-0561 (protein)
# chain 1: EVQLVESGGGLVQPGGSLRLSCAASGFRFSSYDMHWVRQATGQGLEWVSVIGHGGDTYYAGSVRGRFTISRENAKNSVYLQMNSLRAGDTAVYYCARSPPPLDYGDHFIDYWGQGTLVTVSS
# chain 2: QSVLTQPPSASGTPGQRVTISCSGSSSNIGSHYVYWYQQLPGTAPKLLIYRNNQRPSGVPDRFSGSKSGTSASLAISGPRSEDEAEYYCATWDASLWVFGTGTKVTVL
# B10: BD58-0569 (protein)
# chain 1: QVQLVQSGAEVKKPGASVKVSCKLSGYTLTELSMHWVRQTPGKGLEWMGGFDPAEDKTVYAQKFQGRVTMTEDTSADTAYMELSSLRSEDTAVYYCATGVPAVIFRFDPWGQGTQVIVSS
# chain 2: QPVLTQPPSASASLGASVTLTCTLSSGYNNYKVDWYQQRPGKGPRFVMRVGTGGIVGSKGDGIPDRFSVLGSGLNRYLTIKNIQEEDESDYHCGTDHGTGSDFVVVFGGGTKLTVL
# Biological target: SARS-CoV-2 Omicron BA.1 spike pseudovirus
# Assay: pseudovirus neutralization IC50; higher = weaker neutralization
# Procedure: (§1)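 Single-round VSV luciferase pseudovirus mixed with antibody dilutions for 1 h and put on Huh-7 cells for about a day; IC50 from the dose curve.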
row,Binder,pseudovirus neutralization IC50 [µg/mL]
1,B1,0.00178
2,B2,0.00174
3,B3,1.57
4,B4,1.75
5,B5,> 10
6,B6,0.0979
7,B7,> 10
8,B8,0.0299
9,B9,0.00238
10,B10,0.216

# Biological target: SARS-CoV-2 Omicron BA.2 spike pseudovirus
# Assay: as above
# Procedure: as §1
row,Binder,pseudovirus neutralization IC50 [µg/mL]
1,B1,0.000967
2,B2,0.00206
3,B3,0.00146
4,B4,0.0116
5,B5,0.157
6,B6,2
7,B7,0.48
8,B8,0.0193
9,B9,0.00335
10,B10,0.41

# Biological target: SARS-CoV-2 Omicron BA.2.75 spike pseudovirus
# Assay: as above
# Procedure: as §1
row,Binder,pseudovirus neutralization IC50 [µg/mL]
1,B1,0.511
2,B2,0.00856
3,B3,> 10
4,B4,0.0276
5,B5,> 10
6,B6,> 10
7,B7,0.0556
8,B8,> 10
9,B9,0.696
10,B10,> 10

# Biological target: SARS-CoV-2 Omicron BA.2.75.2 spike pseudovirus
# Assay: as above
# Procedure: as §1
row,Binder,pseudovirus neutralization IC50 [µg/mL]
1,B1,> 10
2,B2,> 10
3,B3,> 10
4,B4,> 10
5,B5,> 10
6,B6,> 10
7,B7,0.115
8,B8,> 10
9,B9,> 10
10,B10,> 10

# Biological target: SARS-CoV-2 Omicron BA.5 spike pseudovirus
# Assay: as above
# Procedure: as §1
row,Binder,pseudovirus neutralization IC50 [µg/mL]
1,B1,> 10
2,B2,> 10
3,B3,> 10
4,B4,0.0254
5,B5,> 10
6,B6,> 10
7,B7,> 10
8,B8,0.193
9,B9,0.545
10,B10,> 10

# Biological target: SARS-CoV-2 Omicron BM.1.1.1 spike pseudovirus
# Assay: as above
# Procedure: as §1
row,Binder,pseudovirus neutralization IC50 [µg/mL]
1,B1,> 10
2,B2,> 10
3,B3,> 10
4,B4,> 10
5,B5,> 10
6,B6,> 10
7,B7,0.125
8,B8,> 10
9,B9,> 10
10,B10,> 10

# Biological target: SARS-CoV-2 Omicron BQ.1.1 spike pseudovirus
# Assay: as above
# Procedure: as §1
row,Binder,pseudovirus neutralization IC50 [µg/mL]
1,B1,> 10
2,B2,> 10
3,B3,> 10
4,B4,> 10
5,B5,> 10
6,B6,> 10
7,B7,> 10
8,B8,> 10
9,B9,> 10
10,B10,> 10

# Biological target: SARS-CoV-2 Omicron BR.2 spike pseudovirus
# Assay: as above
# Procedure: as §1
row,Binder,pseudovirus neutralization IC50 [µg/mL]
1,B1,> 10
2,B2,> 10
3,B3,> 10
4,B4,> 10
5,B5,> 10
6,B6,> 10
7,B7,0.0504
8,B8,> 10
9,B9,1.79
10,B10,> 10

# Biological target: SARS-CoV-2 Omicron CA.1 spike pseudovirus
# Assay: as above
# Procedure: as §1
row,Binder,pseudovirus neutralization IC50 [µg/mL]
1,B1,> 10
2,B2,> 10
3,B3,> 10
4,B4,> 10
5,B5,> 10
6,B6,> 10
7,B7,0.129
8,B8,> 10
9,B9,> 10
10,B10,> 10

# Biological target: SARS-CoV-2 Omicron XBB spike pseudovirus
# Assay: as above
# Procedure: as §1
row,Binder,pseudovirus neutralization IC50 [µg/mL]
1,B1,> 10
2,B2,> 10
3,B3,> 10
4,B4,> 10
5,B5,> 10
6,B6,> 10
7,B7,> 10
8,B8,> 10
9,B9,> 10
10,B10,> 10

# Biological target: SARS-CoV-2 early D614G spike pseudovirus
# Assay: as above
# Procedure: as §1
row,Binder,pseudovirus neutralization IC50 [µg/mL]
1,B1,> 10
2,B2,> 10
3,B3,> 10
4,B4,> 10
5,B5,> 10
6,B6,> 10
7,B7,> 10
8,B8,> 10
9,B9,> 10
10,B10,> 10
